Single amino acid changes in Zika NS2B-NS3 and viral growth

From the data files of Ni et al. 2025, doi:10.1038/s41467-025-63602-z.

Protein: NS2B and the protease part of NS3 of Zika virus strain MR766. Positions count along the chain below; NS2B spans 2-131 and NS3 starts at 132.
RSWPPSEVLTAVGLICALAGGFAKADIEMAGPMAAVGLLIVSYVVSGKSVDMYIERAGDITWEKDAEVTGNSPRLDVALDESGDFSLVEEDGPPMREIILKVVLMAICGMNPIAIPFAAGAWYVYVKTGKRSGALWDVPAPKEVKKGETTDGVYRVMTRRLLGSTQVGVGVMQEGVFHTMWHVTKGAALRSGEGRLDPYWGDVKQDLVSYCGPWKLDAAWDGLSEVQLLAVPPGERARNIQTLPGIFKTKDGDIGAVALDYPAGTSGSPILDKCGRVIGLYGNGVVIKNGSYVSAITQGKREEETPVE

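Libraries of single mutants were passaged as virus pools on Huh-7.5 cells. The effect is the change in frequency of a mutant, normalised to wild type, as a mean of three replicate libraries (two for positions 207-308). The aim was to find sites where inhibitor-binding pockets cannot change.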

Scale: log2 effect, wild type = 0; the lower, the more harmful to the virus. A change reads original residue, position, new residue. Position 1 still belongs to NS2A. In the paper, -1 or higher counts as tolerated. Values above 0 are not proof of better growth: six high scorers were tested one by one, five grew less well than wild type and one about as well. An asterisk is a stop codon; stop codons read about -7, near the floor of the assay. Positions 1-103, 104-206 and 207-308 were made and measured as separate libraries.

change	effect (log2)
S46*	-4.49
S46A	2.06
S46C	2.28
S46D	-5.47
S46E	-6.16
S46F	-6.04
S46G	-3.47
S46H	-0.99
S46I	-4.15
S46K	-5.60
S46L	-3.54
S46M	0.50
S46N	-1.39
S46P	-7.09
S46Q	-1.48
S46R	-5.25
S46T	2.15
S46V	-1.92
S46W	-6.14
S46Y	-3.46
G47*	-3.88
G47A	-6.64
G47C	-4.60
G47D	-5.84
G47E	-4.98
G47F	-4.99
G47H	-6.19
G47I	-6.17
G47K	-6.21
G47L	-7.87
G47M	-5.97
G47N	-1.67
G47P	-7.28
G47Q	-5.40
G47R	-6.16
G47S	-4.77
G47T	-5.44
G47V	-4.38
G47W	-6.26
G47Y	-6.08
K48*	-6.40
K48A	-6.06
K48C	-5.31
K48D	-4.89
K48E	-5.58
K48F	-5.64
K48G	-3.74
K48H	-5.70
K48I	-4.67
K48L	-5.25
K48M	-6.53
K48N	-3.62
K48P	-5.85
K48Q	-5.07
K48R	0.67
K48S	-4.83
K48T	-5.17
K48V	-5.16
K48W	-6.18
K48Y	-4.67
S49*	-6.78
S49A	-1.96
S49C	-1.64
S49D	-5.62
S49E	-5.62
S49F	-5.41
S49G	-0.87
S49H	-2.30
S49I	-4.72
S49K	-5.85
S49L	-7.77
S49M	-3.43
S49N	-0.64
S49P	-5.26
S49Q	-4.18
S49R	-5.80
S49T	0.60
S49V	-3.19
S49W	-6.34
S49Y	-4.27
V50*	-6.90
V50A	-2.87
V50C	-0.44
V50D	-5.96
V50E	-5.93
V50F	-6.05
V50G	-6.03
V50H	-4.05
V50I	-1.65
V50K	-6.35
V50L	-2.63
V50M	-1.80
V50N	-2.80
V50P	-6.60
V50Q	-5.01
V50R	-5.43
V50S	-2.70
V50T	-0.34
V50W	-6.46
V50Y	-5.98
D51*	-6.72
D51A	-5.57
D51C	-3.32
D51E	-1.27
D51F	-5.32
D51G	-6.27
D51H	-4.34
D51I	-5.34
D51K	-5.99
D51L	-6.84
D51M	-5.76
D51N	-4.46
D51P	-7.32
D51Q	-4.03
D51R	-7.42
D51S	-4.43
D51T	-4.99
D51V	-5.79
D51W	-5.84
D51Y	-3.47
M52*	-7.41
M52A	-6.71
M52C	-2.38
M52D	-5.47
M52E	-5.71
M52F	-1.02
M52G	-7.10
M52H	-6.42
M52I	-2.81
M52K	-6.41
M52L	-1.15
M52N	-5.87
M52P	-7.52
M52Q	-6.66
M52R	-7.82
M52S	-7.61
M52T	-4.29
M52V	-4.75
M52W	-3.30
M52Y	-5.62